By UniProt entry, the sequences of proteins in these tests, tags left out. Residues count along the entry.
UniProt Q8I6V3, 125-453 limits assumed: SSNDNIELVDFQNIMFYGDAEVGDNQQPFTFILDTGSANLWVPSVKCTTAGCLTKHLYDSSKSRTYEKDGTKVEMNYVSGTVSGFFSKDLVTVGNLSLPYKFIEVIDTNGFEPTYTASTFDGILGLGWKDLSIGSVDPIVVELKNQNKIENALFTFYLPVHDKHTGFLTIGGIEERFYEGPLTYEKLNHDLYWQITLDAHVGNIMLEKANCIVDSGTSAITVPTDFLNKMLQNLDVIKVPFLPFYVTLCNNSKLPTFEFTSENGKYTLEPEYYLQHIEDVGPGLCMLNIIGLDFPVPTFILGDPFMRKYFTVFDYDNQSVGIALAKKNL
UniProt Q8IM16, 122-449 limits assumed: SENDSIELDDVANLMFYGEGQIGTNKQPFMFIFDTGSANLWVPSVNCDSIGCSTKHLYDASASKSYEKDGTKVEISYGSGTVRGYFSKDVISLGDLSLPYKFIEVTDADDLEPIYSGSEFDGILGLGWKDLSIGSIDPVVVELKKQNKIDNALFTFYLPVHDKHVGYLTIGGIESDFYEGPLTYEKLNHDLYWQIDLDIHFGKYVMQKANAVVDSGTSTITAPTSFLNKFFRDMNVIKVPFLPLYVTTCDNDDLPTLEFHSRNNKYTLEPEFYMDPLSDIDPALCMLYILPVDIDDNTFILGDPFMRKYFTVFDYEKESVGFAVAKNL

According to US20080076762A1, “Novel 4-Aminopiperidine Derivatives” (priority 2004, published 2008):

What was measured:
plasmepsin II = plasmepsin II (Plasmodium falciparum, UniProt Q8I6V3); experiment: FRET assay for plasmepsin II; type: biochemical; details: read-out: IC50 (PM II in nM), pH 5, 37° C., substrate M-2120 1 μM
Procedure: (§1) The Fluorescence Resonance Energy Transfer (FRET) Assay for Plasmepsin II & IV and Human Cathepsin D & E:
(§2) The assay conditions are selected according to reports in the literature.
(§3) The FRET assay is performed in white polysorp plates (Fluoronunc, cat no 264 572) at 37° C. with a final volume of 80 μl.
(§4) The assay buffer is composed of 50 mM sodium acetate pH 5, 12.5% (w/v) glycerol, and 0.1% (w/v) BSA. The reaction consists of the following components: 60 μl assay buffer, 4 μl inhibitor (in DMSO), 8 μl substrate (M-2120 from BACHEM) to a final concentration of 1 μM and 8 μl enzyme (plasmepsin II, plasmepsin IV or cathepsin E to a final amount of 0.015 μg/ml per assay tube, cathepsin D to a final amount of 0.05 μg/ml per assay tube). The inhibitor is pre-diluted in DMSO in a dilution plate and six concentrations are prepared in duplicate. The compounds are usually tested at a final concentration varying from 1 nM to 100 μM. The substrate is diluted using 50% DMSO-50% assay buffer and the enzyme using assay buffer. The mixtures are then incubated for 3 h at 37° C. and the fluorescence is determined at 1 and 3 hour with a FluoroStar Galaxy from BMG using excitation and emission filters of 355 and 520 nm, respectively.
(§5) Auto-fluorescence of all the test substances is determined in assay buffer in the absence of substrate and enzyme and this value is subtracted from the final signal.
(§6) The inhibitory activity of the compounds is expressed as IC50, which represents the concentration of compound that inhibits 50% of the maximal (uninhibited) enzyme activity.

plasmepsin IV = plasmepsin IV (Plasmodium falciparum, UniProt Q8IM16); experiment: FRET assay for plasmepsin IV; type: biochemical; details: read-out: IC50 (PM IV in nM), pH 5, 37° C., substrate M-2120 1 μM
Procedure: as §1, §2, §3, §4, §5, §6

| Structure (SMILES) | IC50 (plasmepsin II) [nM] | IC50 (plasmepsin IV) [nM] |
| --- | --- | --- |
| CCCCCc1ccc(C(=O)N(Cc2ccc(-c3cccc(C(F)(F)F)c3)cc2)C2CCN(CCC(C)C)CC2)nc1 | 48 | 406 |
| CCCCCc1ccc(C(=O)N(Cc2ccc(NC(=O)c3ccc(C#N)cc3)cc2)C2CCN(CCC(C)C)CC2)cc1 | 22 | 434 |
| CCCCCc1ccc(C(=O)N(Cc2ccc(C(=O)NCc3ccc4c(c3)OCO4)cc2)C2CCN(CCC(C)C)CC2)cc1 | 14 | 1820 |
| CCCCCc1ccc(C(=O)N(Cc2ccc(-c3ccccc3Cl)o2)C2CCN(CCC(C)C)CC2)cc1 | 110 | 276 |
| CCCCCc1ccc(C(=O)N(Cc2ccc(-c3cc(C(C)C)no3)cc2)C2CCN(CCC(C)C)CC2)cc1 | 16 | 897 |
| CCCCCc1ccc(C(=O)N(Cc2ccc(C(=O)Nc3ccc(OC)cc3)cc2)C2CCN(CCC(C)C)CC2)cc1 | 44 | – |
| CCCCCc1ccc(C(=O)N(Cc2ccc(-c3cccc(F)c3)cc2)C2CCN(CCC(C)C)CC2)nc1 | 18 | 27 |
| CCCCCc1ccc(C(=O)N(Cc2ccc(-c3noc(-c4ccc(OC)c(OC)c4)n3)cc2)C2CCN(CCC(C)C)CC2)nc1 | 80 | 3440 |
| CCCCCc1ccc(C(=O)N(Cc2ccc(NC(=O)c3cccc(Cl)c3)cc2)C2CCN(CCC(C)C)CC2)cc1 | 50 | 580 |
| CCCCCc1ccc(C(=O)N(Cc2ccc(-c3cc(C(C)(C)C)no3)cc2)C2CCN(CCC(C)C)CC2)cc1 | 43 | – |
| CCCCCc1ccc(C(=O)N(Cc2ccc(NC(=O)c3cccc(C#N)c3)cc2)C2CCN(CCC(C)C)CC2)cc1 | 60 | 495 |
| CCCCCc1csc(C(=O)N(Cc2ccc(-c3ccc(C(=O)N4CCC(CCO)CC4)cc3)cc2)C2CCN(CCC(C)C)CC2)c1 | 43 | – |
| CCCCCc1ccc(C(=O)N(Cc2ccc(-c3ccc(C)cc3)cc2)C2CCN(CCC(C)C)CC2)nc1 | 22 | 167 |
| CCCCCc1ccc(C(=O)N(Cc2ccc(N(C)Cc3ccccc3)cc2)C2CCN(CCC(C)C)CC2)nc1 | 40 | 1880 |
